Experiments:
[1] = target: Human CCL25, human, O15444 24-150
[2] = target: hCCL20, Homo sapiens (UniProt P78556)
[3] = target: T1, hCCL28, Homo sapiens (UniProt Q9NRJ3)
T1 sequence: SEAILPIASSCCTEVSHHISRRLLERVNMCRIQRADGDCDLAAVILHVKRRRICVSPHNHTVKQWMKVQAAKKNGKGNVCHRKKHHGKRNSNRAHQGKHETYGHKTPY

[4] = target: T2, hCXCL13, Homo sapiens (UniProt O43927)
T2 sequence: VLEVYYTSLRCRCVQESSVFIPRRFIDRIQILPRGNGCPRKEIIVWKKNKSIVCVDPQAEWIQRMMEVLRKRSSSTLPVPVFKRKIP

[5] = target: T3, hCXCL14, Homo sapiens (UniProt O95715)
T3 sequence: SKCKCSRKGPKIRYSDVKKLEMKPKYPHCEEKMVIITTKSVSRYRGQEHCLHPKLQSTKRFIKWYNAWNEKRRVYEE

[6] = target: human CXCL12β, human, P48061 22-93

“Purified recombinant full-length VaV CrmB protein” showed a Kd [1] of 0.5 nM, a Kd [2] of 29.2 nM and a Kd [3] of 0.39 nM. For the same substance, the Kd [4] was 5.95 nM, the Kd [5] was 6.29 nM and the Kd [6] was 4.26 nM.
